A mixed list of measured activities; the numbers were collected in NIAID ChemDB.

All rows: tests in culture; species: Semliki Forest virus

Conditions beyond the fields shown may differ between rows. ECn is the concentration giving n% inhibition of infection, replication or growth. An empty or dashed field is not shown.

SMILES,cell line,method,read-out,result
COc1ncnc2c1ncn2[C@@H]1O[C@H](CO)[C@@H](O)[C@@H]1O,-,cytopathic effect,EC50,>100 µM
Cc1nc(CC(O)CO)c2nc[nH]c(=O)n12,VERO,cytopathic effect,EC50,>400 µg/mL
Nc1nccc2c1ncn2[C@@H]1C=C[C@@H](O)[C@H]1O,-,-,MIC,>200 µg/mL
O=c1ccn([C@@H]2O[C@H](CO)[C@@H](F)[C@H]2O)c(=O)[nH]1,VERO B,cytopathic effect,EC50,>400 µg/mL
Nc1ncnc2c1ncn2[C@H]1C[C@@H](CO)[C@H](O)[C@@H]1O,VERO,cytopathic effect,EC50,>400 µg/mL
C=CCc1nc(C)n2c(=O)[nH]c(NC(C)=O)nc12,VERO,cytopathic effect,EC50,>200 µg/mL
Nc1nccc2c1ncn2[C@@H]1C[C@H](CO)[C@@H](O)[C@H]1O,-,-,MIC,>400 µg/mL
NS(=O)c1ncnc2c1ncn2[C@@H]1O[C@H](CO)[C@@H](O)[C@@H]1O,-,cytopathic effect,EC50,>320 µM
C=CCc1nc(C)n2c(=O)[nH]cnc12,VERO,cytopathic effect,EC50,>200 µg/mL
NS(=O)c1ncnc2c1ncn2[C@H]1C[C@H](O)[C@@H](CO)O1,-,cytopathic effect,EC50,>320 µM
Cc1cn([C@H]2O[C@H](CO)[C@@H](N=[N+]=[N-])[C@H]2F)c(=O)nc1N,VERO B,cytopathic effect,EC50,>400 µg/mL
NS(=O)(=O)c1ncnc2c1ncn2[C@@H]1O[C@H](CO)[C@@H](O)[C@@H]1O,-,cytopathic effect,EC50,>320 µM
Nc1ncnc2c1ncn2[C@@H]1CC[C@@H](O)[C@H]1O,-,-,MIC,>100 µg/mL
N=C(N)c1ncn([C@@H]2O[C@H](CO)[C@@H](O)[C@H]2O)n1,-,-,EC50,>100 µM
Nc1ncnc2c1ncn2[C@@H]1C[C@H](CO)[C@@H](O)[C@H]1O,VERO,cytopathic effect,EC50,2 µg/mL